The record followed here is patent publication US20230218743A1 (IMMUNITYBIO, published 2023).

The target of the experiment is T1, SARS-CoV-2 Spike receptor binding domain, wild-type (SARS-CoV-2, UniProt P0DTC2 319-541).
T1 construct: domain: RBD
As to the kind of experiment: Octet, IgG1 on AHC biosensor. For orientation: In BLI a coated tip is dipped into the sample, and binding shifts an interference pattern.

B1: N-612-041 (antibody, V domains shown)
VH: EVQLVESGGGLVQPGGSLRLSCAASGFTFSSYTMHWVRQAPGKGLEWVSAISGSGGYTYYADSVKGRFTISRDNSKNTLYLQMNSLRAEDTAVYYCARDRDLLWMGWAFDVWGQGTLVTVSS
VL: DIQMTQSPSSLSASVGDRVTITCQASQDISNYLNWYQQKPGKAPKLLIYDASNLETGVPSRFSGSGSGTDFTFTISSLQPEDIATYYCQQYANWPLTFGQGTKVEIK
On to B1, for which the binding result was “no binding (tested: 2x dilution series starting at 100 nM)”.
